A mixed list of measured activities; the numbers were collected in NIAID ChemDB.

Common to all: growth or infection tests; species: HIV-1; cell line: PBMC; read-out: EC90

ECn is the concentration giving n% inhibition of infection, replication or growth. Two numbers with a dash give a range or band. Neighbouring rows are from separate reports. Blank or dashed fields: not listed here.

compound	strain	changes	method	result
Nc1c(S(=O)(=O)O)cc2c3c(cc(S(=O)(=O)O)cc13)C(=O)N(NC(=O)N/N=C/c1ccc(-c3ccc(/C=N/NC(=O)NN4C(=O)c5cc(S(=O)(=O)O)cc6c(N)c(S(=O)(=O)O)cc(c56)C4=O)cc3)cc1)C2=O	LAV		trypan blue	13.5 µM
CC(C)Nc1cccnc1N1CCN(C(=O)c2cc3cc(NS(C)(=O)=O)ccc3[nH]2)CC1	Isolate 472		p24	>10 µM
Nc1ccn([C@@H]2CS[C@H](CO)O2)c(=O)n1	Subtype B isolate		p24	0.05 µM
Cc1cn([C@@H]2O[C@H](CO)[C@@H](N=[N+]=[N-])[C@H]2O)c(=O)[nH]c1=O				>100 µM
Nc1ccn([C@@H]2C=C(F)[C@H](CO)S2)c(=O)n1	3TC-resistant (RT M184V)	RT-M184V	RT activity	>100 µM
Cc1c(O)cccc1C(=O)N[C@@H](CSc1ccccc1)[C@H](O)CN1C[C@H]2CCCC[C@H]2C[C@H]1C(=O)NC(C)(C)C	NL4-3 X4		p24	0.075 µM
CC[C@H]1OC(=O)[C@H](C)[C@@H](O[C@H]2C[C@@](C)(OC)[C@@H](O)[C@H](C)O2)[C@H](C)[C@@H](O[C@@H]2O[C@H](C)C[C@H](N(C)C)[C@H]2O)[C@](C)(O)C[C@@H](C)C(=O)[C@H](C)[C@@H](O)[C@]1(C)O	LAV		RT activity	>1000 µg/mL
Cc1cn([C@H]2C[C@H](N=[N+]=[N-])[C@@H](CO)O2)c(=O)[nH]c1=O	IIIB		p24	0.093 µM
Cc1cn([C@H]2C[C@H](N=[N+]=[N-])[C@@H](CO)O2)c(=O)[nH]c1=O	xxBRU			0.01 µM
Nc1nc(NC2CC2)c2ncn([C@H]3C=C[C@@H](CO)O3)c2n1	BRU PITT.(RT-K65R)	RT-K65R	cytopathic effect / MTT	>100 µM
Cc1cnc(CC2=C[C@@]3(O)CC/C=C\CCCCN4CC[C@@H]2[C@]2(C[C@@H]5CCCCCCN5C23)C4)cn1	LAV		RT activity	57.9 µM
CCO/N=C(\c1ccc(Br)cc1)C1CCN(C2(C)CCN(C(=O)c3c(C)cc[n+]([O-])c3C)CC2)CC1	BAL R5		p24	0.079 µM
CCCCN1C(=O)[C@@H]([C@H](O)C2CCCCC2)NC(=O)C12CCN(Cc1ccc(Oc3ccc(C(=O)O)cc3)cc1)CC2	BaL		p24 / ELISA	0.016 µM
Nc1c(S(=O)(=O)[O-])cc2c3c(cc(S(=O)(=O)[O-])cc13)C(=O)N(NC(=O)N/N=C\c1cccc(C=O)c1)C2=O.[Na+].[Na+]	LAV		trypan blue	95.9 µM
Cc1cn([C@H]2C=C(N=[N+]=[N-])[C@@H](CO)O2)c(=O)[nH]c1=O				83.5 µM
Nc1nc2c(ncn2[C@H]2C=C[C@@H](CO)O2)c(=O)[nH]1	LAI		cytopathic effect / MTT	3.4 µM
O=c1[nH]cnc2c1ncn2[C@H]1CC[C@@H](CO)O1	LAV		RT activity	3.7 µM
Cc1cn([C@H]2C[C@H](N=[N+]=[N-])[C@@H](CO)O2)c(=O)[nH]c1=O	HXB2		p24	0.26 µM
Cc1cn([C@H]2C[C@H](N=[N+]=[N-])[C@@H](COP(=O)(O)OC[C@@H]3CC[C@H](n4cnc5c(=O)[nH]cnc54)O3)O2)c(=O)[nH]c1=O	LAV		RT activity	0.002–0.0037 µM
Cc1ccc(-c2ccc3c(c2)C=C(C(=O)Nc2ccc(C[N+](C)(C)C4CCOCC4)cc2)CCC3)cc1	BAL R5		p24	0.256 µM
O=c1[nH]cnc2c1ncn2[C@H]1CC[C@@H](CO)O1	RF		p24	3.9 µM
Cc1cn([C@H]2C[C@H](N=[N+]=[N-])[C@@H](COP(=O)(OCCC#N)OC[C@@H]3CC[C@H](n4cnc5c(N)ncnc54)O3)O2)c(=O)[nH]c1=O	LAV		RT activity	0.248 µM
Cc1cn([C@H]2C[C@H](N=[N+]=[N-])[C@@H](CO)O2)c(=O)[nH]c1=O			p24 / ELISA	0.13 µM
CCC[C@@H](c1ccc(C(F)(F)F)cc1)N1CCN(C2(C)CCN(C(=O)c3c(C)ncnc3C)CC2)C[C@@H]1C	JRFL Clinical isolates			0.00001 µM
Cc1cn([C@H]2C[C@H](N=[N+]=[N-])[C@@H](CO)O2)c(=O)[nH]c1=O	XM-Q151M	RT-A62V V75I F77C F116Y Q151M	p24	>375 µM
O=c1[nH]c(=O)n([C@H]2C[C@H](O)[C@@H](CO)O2)cc1C12B3B4B5B6B(B3B1B42)B1B5C61			cytopathic effect / MTT	189 µM
Cc1cn([C@H]2C[C@H](N=[N+]=[N-])[C@@H](CO)O2)c(=O)[nH]c1=O	Group O isolate		RT activity	0.04 µM
Cc1cn([C@H]2C[C@H](N=[N+]=[N-])[C@@H](CO)O2)c(=O)[nH]c1=O	JR-FL R5		p24	0.157 µM
CC(=O)N1CCC(C(=O)N(CCCN2CCC(Cc3ccc(C(N)=O)cc3)CC2)c2ccc(C)c(Cl)c2)CC1	HE R5X4		p24	>10 µM
Cc1cn([C@H]2C[C@H](N=[N+]=[N-])[C@@H](CO)O2)c(=O)[nH]c1=O	BaL		p24 / ELISA	0.128 µM
Cc1ccnc2c1NC(=O)c1cccnc1N2C1CC1	Subtype B isolate		p24	0.1 µM
CC(C)(C)NC(=O)[C@@H]1CN(Cc2cccnc2)CCN1C[C@@H](O)C[C@@H](Cc1ccccc1)C(=O)N[C@H]1c2ccccc2C[C@H]1O	BR58 (PR L10I K20R M36I/V P63L/S L90M)	PR-L10I K20R M36I/V P63L/S L90M	p24	0.017 µM
CC[C@H](C)[C@H](NC(=O)[C@H](C(C)C)[C@@H](O)[C@H](O)[C@H](CC1CCCCC1)NC(=O)[C@H](Cc1cnc[nH]1)NC(=O)COc1cccc2ccccc12)C(=O)NCc1ccccn1	JR-CSF		p24	0.4 µM
CCc1cc(NCc2nc3c(Cl)ccc(Cl)c3o2)c(=O)[nH]c1C	Clinical isolate (RT K70R)	RT-K70R	p24	0.2 µM
CC(C)CN(C[C@@H](O)[C@H](Cc1ccccc1)NC(=O)[C@H](CC(N)=O)NC(=O)c1ccc2ccccc2n1)C(=O)NC(C)(C)C	LAV		RT activity	0.14 µM
Nc1nc2c(ncn2C2CC(/C=C/P(=O)(O)O)(C(F)(F)F)CO2)c(=O)[nH]1	LAI		RT activity	95 µM
O=c1[nH]cnc2c1ncn2[C@H]1CC[C@@H](CO)O1	NL4-3 WT		p24	18 µM
Cc1ccc(-c2ccc3c(c2)C=C(C(=O)Nc2ccc(C[N+](C)(C)C4CCOCC4)cc2)CCC3)cc1	BaL		p24	0.408 µM
Nc1ccn([C@@H]2O[C@H](CO)C=C2F)c(=O)n1	3TC-resistant (RT M184V)	RT-M184V		1.8 µM
[N-]=[N+]=NC1=C[C@H](n2ccc(N)nc2=O)O[C@@H]1CO				>100 µM
CCC[C@@]1(CCc2ccccc2)CC(O)=C([C@H](CC)c2cccc(NS(=O)(=O)c3ccc(C(F)(F)F)cn3)c2)C(=O)O1	472 clinical isolates AZT-resistant		p24	0.03 µM
CCO/N=C(\c1ccc(Br)cc1)C1CCN(C2(C)CCN(C(=O)c3c(C)cc[n+]([O-])c3C)CC2)CC1	BaL		p24 / ELISA	0.094 µM
Nc1nc2c(ncn2[C@H]2C=C[C@@H](CO)C2)c(=O)[nH]1	IIIB		RT activity	0.5–1 µM
Nc1ncnc2c1ncn2C1CC(/C=C/P(=O)(O)O)(C(F)(F)F)CO1	LAI		RT activity	90 µM
CCN(c1ncccc1NC(C)(C)C)C1CCN(C(=O)c2cc3cc(NS(C)(=O)=O)ccc3[nH]2)CC1	Isolate 472		p24	0.18 µM